In data set [1] the test system is Enterobacter sp. FDS8. Description: Detoxification of furfural and HMF in lignocellulose hydrolysate by Enterobacter sp. FDS8 cells (HPLC). The following applies: for concentration in lignocellulose hydrolysate after detoxification: 3 h, 3.4 g/L cells, 30 °C.
For data set [2], the system named is Amorphotheca resinae ZN1. The note with it: Table 4; 25 °C, detoxification time 96 h; cited from earlier work.
The subject of data set [3] is Ureibacillus thermosphaericus. The following applies: Table 4; 50 °C, detoxification time 24 h; cited from earlier work.
Setting [4] is: Table 7, consecutive detoxification step 1.
Setting [5] is: Table 4, detoxification temperature 30 °C, detoxification time 3 h.

The structures appear in SMILES notation.

In the case of `O=C[C@@H](O)[C@H](O)[C@H](O)CO` [Arabinose], the “concentration in lignocellulose hydrolysate after detoxification” value (“concentration” for short) in data set [1] (Table 2, 200 mL hydrolysate) stood at 1.94 g/L; in data set [1] (Table 3, 20 ml hydrolysate), 1.69 g/L; in data set [1] (setting [4]) it was 1.85 g/L.
With `O=Cc1ccc(CO)o1` [HMF, 5-(hydroxymethyl)-2-furaldehyde], the degradation rate in data set [1] (Control (without nitrogen resource)) worked out at 93 ± 12 mg/L/h; in data set [1] (NaNO3 5 g/L + (NH4)2SO4 5 g/L), 53 ± 12 mg/L/h; in data set [1] (Potato extract 10 g/L), 93 ± 6 mg/L/h; in data set [1] (setting [5]), 123 mg/L/h; in data set [1] (Yeast extract 10 g/L) it was 97 ± 12 mg/L/h; in data set [1] (inoculum size of 4.6 g/L (FIG. 4)), 123 mg/L/h. For the same molecule, the degradation rate in data set [2] and in data set [3] was 9 mg/L/h throughout. Besides, the “concentration” value is recorded as 0 g/L in data set [1] (Table 2, 200 mL hydrolysate); 0 g/L in data set [1] (Table 3, 20 ml hydrolysate); 0 g/L in data set [1] (setting [4]). Further, the results for the Specific degradation rate in data set [1] (setting [5]) and in data set [3] were 40 mg/g cell/h and 3 mg/g cell/h, respectively.
Turning to `O=C[C@H](O)[C@@H](O)[C@H](O)CO` [Xylose], the “concentration” value in data set [1] (Table 2, 200 mL hydrolysate) was found to be 17.65 g/L; in data set [1] (Table 3, 20 ml hydrolysate), 16.86 g/L; in data set [1] (setting [4]), 16.9 g/L.

These data come from patent publication US20150118736A1, “METHOD OF DEGRADING ORGANIC COMPOUNDS” (Agency for Science, Technology and Research, priority 2012, published 2015).
